Measurements reported in patent US20100240746A1, “STEREOISOMERS OF TRICYCLODECAN-9-YL-XANTHOGENATE” (LUMAVITA AG, priority 2007, published 2010).

test system: herpes simplex virus type 2; experiment: HSV-2 inhibition in Calu-6 cells, plaque titration on RITA cells; assay type: cell-based; details: LD50 divided by IC50
Protocol: Calu-6 cells and RITA cells were grown in DMEM cell culture medium containing 10% fetal calf serum in CO2 incubator under 5% CO2 at 37° C. with 100% humidity.
For HSV-2 inhibition, Calu-6 cells were seeded in 96 well plates at a density of 3×10^6 cells per plate in the DMEM cell culture medium. The plates were incubated at 37° C. in the presence of 5% CO2 for 24 hr. The DMEM cell culture medium in the plates was removed and the cells were infected with Herpes simplex virus type-2 at 50 plaque forming units per well. After incubation at 37° C. for 60 min, test compounds in DMEM cell culture medium at a series of concentrations were added. The plates were incubated at 37° C. in the presence of 5% CO2 for 48 hr. The plates were frozen at −20° C. prior to further analysis. After thawing at room temperature, supernatants containing infectious virus particles were prepared by centrifuging the supernatant from each well at 18,000 g at 4° C. for 5 min. The supernatant was further diluted before assay.
RITA cells were seeded in 24 well Linbra plates at a density of 4×10^6 cells per plate in 2 mL of DMEM cell culture medium. The plates were incubated at 37° C. in the presence of 5% CO2 for 24 hr. After the removal of the cell culture medium, 0.1 mL of the diluted supernatants was added and the plates were incubated at 37 C for 1 hr. DMEM cell medium containing 10% fetal calf serum and 0.5% methyl cellulose was added and the plates were incubated at 37 for 48 hr. The plates were then washed with PBS, fixed with 3% formaldehyde solution containing 0.9% NaCl for 1 min, washed by water for 10 sec, and dried overnight. For detection, the plates were then stained with crystal violet solution for 5 min at room temperature, washed 5 times with water, and dried at room temperature overnight. The number of plaques was determined macroscopically. The number of plaques per well was then multiplied with the dilution factor. Dose response curves were obtained by plotting the number of plaques/0.1 mL against compound concentration. The therapeutic index was also calculated for each compound by dividing LD50 with IC50.

Compound | Therapeutic Index
S=C(S)O[C@@H]1C[C@@H]2C[C@H]1[C@H]1CCC[C@@H]21 (racemic) [Racemic 1A, racemic O-exo/C-exo xanthic acid 1A] | 5.6
S=C(S)OC1CC2CC1C1CCCC21 (single isomer, unassigned; enantiomer 1a) [(+)-Enantiomer 1A, (+)-O-exo/C-exo-tricyclo[5.2.1.0^2,6]-dec-9-yl-xanthic acid 1A] | 3.9
S=C(S)OC1CC2CC1C1CCCC21 (single isomer, unassigned; enantiomer 1a) [(−)-Enantiomer 1A, (−)-O-exo/C-exo-tricyclo[5.2.1.0^2,6]-dec-9-yl-xanthic acid 1A] | 10.4
S=C(S)OC1CC2CC1C1CCCC21 (stereo not shown) [Compound D609, tricyclodecan-9-yl-xanthogenate] | 3.5
